From paper PMC6268315, “Investigating the Spectrum of Biological Activity of Substituted Quinoline-2-Carboxamides and Their Isosteres ^†” (Molecules, 2012)

The molecules below were run on human monocytic leukemia THP-1 cells. Conditions: LD50 THP-1 / IC90 marked by * in Table 3.

Structure (SMILES)	SI [LD50/IC90]
O=C(NCCc1ccccc1)c1ccc2ccccc2n1 [Compound 11, N-(2-Phenylethyl)quinoline-2-carboxamide]	>0.92
O=C(NC1CCCCCC1)c1ccc2ccccc2n1 [Compound 7, N-Cycloheptylquinoline-2-carboxamide]	0.56
O=C(c1ccc2ccccc2c1)N1CCCC1 [Compound 22, 1-(2-Naphthoyl)pyrrolidine]	>0.90
O=C(c1ccc2ccccc2n1)N1CCCC1 [Compound 3, 2-(Pyrrolidin-1-ylcarbonyl)quinoline]	>0.90
